From paper PMC3663898 (Antiviral research, 2013)

Conditions: rats, single oral dose 25, 50, 100 or 200mg/kg, 7-day observation

Q: Which “survival in single oral dose MTD study” value does the source give for `OC[C@@H]1[C@@H](O)[C@H](O)[C@@H](O)CN1CCCCCCOc1cc(F)ccc1F` [IHVR11029, (2R,3R,4R,5S)-1-(6-(2,5-difluorophenoxy)hexyl)-2-(hydroxymethyl)piperidine-3,4,5-triol] here?
A: Its value is “survived”.
